Results published in PMC10657408, “c-di-GMP inhibits the DNA binding activity of H-NS in Salmonella” (Nature Communications, 2023).
For part of these data: Tags and fusion partners may be left off the protein sequences shown.

Experiments:
H-NS [1] = target: T1, H-NS (UniProt P0A1S2); experiment: ITC; settings: ITC: 25 mM Tris-HCl, 150 mM NaCl, pH 7.5, 20 C, 100 uM DNA into 10 uM protein; recombinant protein; residues 1-137; probe letters rebuilt from the primers and the genome
T1 sequence (looked up): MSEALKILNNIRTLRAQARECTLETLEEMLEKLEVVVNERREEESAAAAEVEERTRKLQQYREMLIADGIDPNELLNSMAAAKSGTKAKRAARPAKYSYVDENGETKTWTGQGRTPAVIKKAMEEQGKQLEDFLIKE

H-NS [2] = target: T1, H-NS; experiment: EMSA; settings: EMSA: 20 mM Tris-HCl, 4 mM MgCl2, 100 mM NaCl, 1 mM DTT, 1% NP-40, 10% glycerol, pH 7.4, room temperature, recombinant protein, probe letters rebuilt from the primers and the genome
H-NS K107A = H-NS K107A (UniProt P0A1S2); experiment: EMSA; settings: EMSA: 20 mM Tris-HCl, 4 mM MgCl2, 100 mM NaCl, 1 mM DTT, 1% NP-40, 10% glycerol, pH 7.4, room temperature, recombinant protein, residues 1-137, probe letters rebuilt from the primers and the genome

Sequence: CAAGAAGGATTATGCGGCGTCATTGCTAAAAGGTTCAATTATTCTTTATCCTCAGTCCGGATTCGGACATGAATTAAAAAGACGTAATAAAAGGAAGTTTTATAATTGAAAAGCATTCTTTTTCATGACCTTACAAGAAAATAAAAAAACAAAATACATATAAGATAAATATAGATTAAAGAAAAACAAAATAAACATGAATAATGTTAAAACCCACATTTACTTAAATGACGATGAAATAAAACTAAAAACAACGTAAAACTAATTCTTATTTAAAATGATATAGTGCCTGAGGTATTAA (double strand) [PyaiU]
- Kd (H-NS [1]): 0.29 µM
- binding result (H-NS [2]; residues 1-137): binds
- binding result (H-NS [2]; c-di-AMP or cGMP, residues …): binds
- binding result (H-NS [2]; c-di-GMP added after complex formation, residues 1-137): binds
- binding result (H-NS K107A): binds
- binding result (H-NS K107A; c-di-GMP added simultaneously): binds
